Assays:
[1] = molecular target: human Fc-CTLA-4 protein, human, P16410 36-161; test: ELISA
[2] = molecular target: T1, non-human primate (NHP) Fc-CTLA-4 protein, non-human primate (NHP); test: ELISA
T1 sequence: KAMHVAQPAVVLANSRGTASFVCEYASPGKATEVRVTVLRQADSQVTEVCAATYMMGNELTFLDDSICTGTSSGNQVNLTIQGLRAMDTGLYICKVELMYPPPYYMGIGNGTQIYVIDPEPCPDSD

CTLA-4 ETB 118421
EC50 [1]: 0.59 nM | EC50 [2]: 0.38 nM
